Anti-infective test results gathered from many reports (values: NIAID ChemDB through PubChem).

All rows: whole-cell or culture tests; agent: Hepatitis C virus; read by: replicon; read-out: EC50

ECn: concentration that inhibits the pathogen or its effect by n%.

structure,strain or isolate,cells,setting,value
C=C[C@H]1C[C@@]1(NC(=O)[C@@H]1C[C@@H](Oc2cc(-c3ccccc3)nc3cc(OC)ccc23)CN1C(=O)[C@@H](NC(=O)OC(C)(C)C)C(C)(C)C)C(=O)NS(=O)(=O)C1(Cc2cccnc2)CC1,1b,Huh7,-,0.05–0.5 µM
C[C@@H](NC(=O)OCc1ccccc1)C(=O)Nc1ccc(C2SC(=Nc3ccc4c(c3)CCC4)N(Cc3ccco3)C2=O)cc1,-,Huh7,-,1–5 µM
CC1CCC(C(=O)N(c2cc(-c3ccc(NC(=O)c4ccccn4)cc3)sc2C(=O)O)C(C)C)CC1,1a,-,-,<0.5 µM
CCOc1nc(N)nc2ccc(-c3cccc(NS(=O)(=O)C4CC4)c3)nc12,-,Huh7,-,<0.3 µM
O=C(N/N=C/c1ccccc1OS(=O)(=O)c1ccc(C(F)(F)F)cc1)c1c(F)cccc1C(F)(F)F,-,Huh7,-,<5 µM
CC(C)Oc1nc(N)nc2ccc(-c3ccc(C(=O)NC4CCCCC4)cc3)nc12,-,Huh7,-,>1 µM
O=C(N/N=C/c1ccccc1OS(=O)(=O)c1ccc(C(F)(F)F)cc1)c1ccccc1C(F)(F)F,-,Huh7,-,<5 µM
COc1cc(-c2cc(N(C(=O)C3CCC(C)CC3)C(C)C)c(C(=O)O)s2)ccc1NC(=O)c1cscn1,1b,-,-,<0.5 µM
CNC(=O)c1c(-c2ccc(O)cc2)oc2ccc(OC(C)C)cc12,-,Huh7,-,<10 µM
CCOc1nc(N)nc2c1ncn2[C@@H]1O[C@@H]2COP(=O)(OC(C)C)O[C@H]2[C@@]1(C)F,2a,-,43 d,0.85 µM
C[C@@H](NC(=O)OCc1ccccc1)C(=O)Nc1ccc(C2SC(=Nc3ccc(N4CCOCC4)cc3)N(Cc3ccncc3)C2=O)cc1,-,Huh7,-,<0.1 µM
C=C[C@H]1C[C@@]1(NC(=O)[C@@H]1C[C@@H](Oc2cc(-c3ccccc3)nc3cc(OC)ccc23)CN1C(=O)[C@@H](NC(=O)C1CCOCC1)C(C)(C)C)C(=O)NS(=O)(=O)C1(Cc2ccccc2)CC1,1b,Huh7,-,0.5–5 µM
O=C(Nc1ccc(C2SC(=Nc3ccc(C(F)(F)F)cc3)N(Cc3ccco3)C2=O)cc1)[C@H]1CCCN1C(=O)OCc1ccccc1,-,Huh7,-,0.1–1 µM
CC1CCC(C(=O)N(c2cc(-c3ccc(NC(=O)c4ccccc4F)cc3)sc2C(=O)O)C(C)C)CC1,1a,-,-,<0.5 µM
COc1cccc(CCC(=O)N/N=C/c2ccccc2OS(=O)(=O)c2ccc(C(F)(F)F)cc2)c1,-,Huh7,-,>50 µM
NC(=O)COc1ccc2c(c1)S(=O)(=O)N=C(c1c(O)c3cc(F)ccc3n(CCC3CC3)c1=O)N2,1a 34161,-,-,0.93 µM
Cc1cccc(C(=O)Nc2ccc(-c3cc(N(C(=O)C4CCC(C)CC4)C(C)C)c(C(=O)O)s3)cc2)n1,1a,-,-,<0.5 µM
CN(c1ccccc1/C=N/NC(=O)Cc1ccc2c(c1)OCO2)S(=O)(=O)c1ccc(C(F)(F)F)cc1,-,Huh7,-,<5 µM
CCOc1nc(NCc2ccc(S(N)(=O)=O)cc2)nc2ccc(-c3ccc(C(=O)NC(C)(C)CN4CCCC4)cc3)nc12,-,-,-,<0.1 µM
O=C(Nc1ccc(C2SC(=Nc3ccc4c(c3)CCC4)N(Cc3ccco3)C2=O)cc1)[C@H]1CCCN1C(=O)OCc1ccccc1,-,Huh7,-,0.1–1 µM
CC(C)N1CCC(NC(=O)c2ccc(-c3ccc4nc(N)nc(O[C@H]5CCOC5)c4n3)cc2)CC1,-,Huh7,-,>1 µM
C=C[C@@H]1C[C@]1(NC(=O)[C@@H]1C[C@@H](Oc2cc(-c3ccccc3)nc3cc(OC)ccc23)CN1C(=O)[C@@H](NC(=O)OC(C)(C)C)C(C)(C)C)C(=O)NS(=O)(=O)CC(C)(C)C,1b,Huh7,-,<0.5 µM
COc1cccc(CC(=O)N/N=C/c2ccccc2S(=O)(=O)c2ccc(C)cc2)c1,-,Huh7,-,5–50 µM
O=C(Nc1ccc(C2SC(=Nc3cccc(F)c3)N(CC3CCS(=O)(=O)C3)C2=O)cc1)[C@H]1CCCN1C(=O)OCc1ccccc1,-,Huh7,-,0.1–1 µM
CCOc1nc(NCc2ccc(S(N)(=O)=O)cc2)nc2ccc(-c3ccc(F)c(Cl)c3)nc12,-,-,-,<0.1 µM
COc1cccc(CC(=O)N/N=C/c2ccccc2OS(=O)(=O)c2ccc(-c3cc(C(F)(F)F)n(C)n3)s2)c1,-,Huh7,-,<5 µM
C=C[C@@H]1C[C@]1(NC(=O)[C@@H]1C[C@@H](Oc2cc(-c3ccccc3)nc3cc(OC)ccc23)CN1C(=O)[C@@H](NC(=O)OC(C)(C)C)C(C)(C)C)C(=O)NS(=O)(=O)CCCC,1b,Huh7,-,<0.5 µM
Cc1cnc(C(=O)Nc2ccc(-c3cc(N(C(=O)C4CCC(C)CC4)C(C)C)c(C(=O)O)s3)cc2)cn1,1a,-,-,<0.5 µM
CNC(=O)c1c(-c2ccc(F)cc2)oc2cc(N(C(C)=O)S(C)(=O)=O)c(OC)cc12,-,Huh7,-,<1 µM
CCCNC(=O)N[C@H](C(=O)N1C[C@H](Oc2cc(-c3ccccc3)nc3cc(OC)ccc23)C[C@H]1C(=O)N[C@]1(C(=O)NS(=O)(=O)C2CC2)C[C@H]1CC)C(C)C,1b,Huh7,-,<0.05 µM
CN(C)c1ccc(C(=O)N/N=C/c2ccccc2OS(=O)(=O)c2ccc(C(F)(F)F)cc2)cc1,-,Huh7,-,5–50 µM
O=C(Nc1cccc(C2SC(=Nc3cccc(F)c3)N(Cc3ccco3)C2=O)c1)[C@H]1CCCN1C(=O)OCc1ccccc1,-,Huh7,-,1–5 µM
O=C(CC1CCCO1)N/N=C/c1ccccc1OS(=O)(=O)c1ccc(C(F)(F)F)cc1,-,Huh7,-,<5 µM
O=C(Nc1ccc(C2SC(=Nc3cccc(F)c3)N(Cc3ccco3)C2=O)cc1)[C@H]1CCCN1C(=O)Cc1ccncc1,-,Huh7,-,0.1–1 µM
C=CC1C[C@@]1(NC(=O)[C@@H]1C[C@@H](Oc2cc(-c3ccccc3)nc3cc(OC)ccc23)CN1C(=O)[C@@H](NC(=O)Oc1ccccc1)C(C)(C)C)C(=O)NS(=O)(=O)C1(Cc2ccccc2)CC1,1b,Huh7,-,0.5–5 µM
CC1CCC(C(=O)N(c2cc(-c3ccc(NC(=O)c4ccc(F)cc4)c(Cl)c3)sc2C(=O)O)C(C)C)CC1,1a,-,-,<0.5 µM
CC(C)(C)OC(=O)NC1CCN(S(=O)(=O)c2cc(-c3ccc4nc(NCc5ccc(S(N)(=O)=O)cc5)nc(NCC(F)(F)F)c4n3)ccc2Cl)CC1,-,-,-,<0.1 µM
COc1ccc(CCN2C(=O)C(c3ccc(NC(=O)[C@@H](C)NC(=O)OCc4ccccc4)cc3)SC2=Nc2cccc(F)c2)cc1OC,-,Huh7,-,1–5 µM
CC1CCC(C(=O)N(c2cc(-c3ccc(NC(=O)c4ccn[nH]4)cc3)sc2C(=O)O)C(C)C)CC1,1b,-,-,<0.5 µM
C=C[C@@H]1C[C@]1(NC(=O)[C@@H]1C[C@@H](Oc2cc(-c3ccccc3)nc3cc(OC)ccc23)CN1C(=O)[C@@H](NC(=O)OC(C)(C)C)C1CCCC1)C(=O)NS(=O)(=O)C(C)C,1b,Huh7,-,<0.05 µM
CNC(=O)c1c(-c2ccc(F)cc2)oc2cc(N(C)S(C)(=O)=O)c(OCc3nn(C)cc3Cl)cc12,-,Huh7,-,<1 µM
C=C[C@@H]1C[C@]1(NC(=O)[C@@H]1C[C@@H](Oc2cc(-c3ccccc3)nc3cc(OC)ccc23)CN1C(=O)[C@H](CC(C)C)NC(=O)OC(C)(C)C)C(=O)NS(=O)(=O)C(C)C,1b,Huh7,-,<0.5 µM
CC1CCC(C(=O)N(c2cc(-c3ccc(NC(=O)c4cscn4)cc3)sc2C(=O)[O-])C(C)C)CC1.C[N+](C)(C)CCO,1b,-,-,<0.5 µM
C=CC1CC1(NC(=O)[C@@H]1C[C@@H](Oc2cc(-c3ccccc3)nc3cc(OC)ccc23)CN1C(=O)[C@@H](NC(=O)OC(C)(C)C)C(C)(C)C)C(=O)NS(=O)(=O)C1(C(=O)NCCC)CC1,1b,Huh7,-,<0.05 µM
C[C@@H](NC(=O)c1ccccc1)C(=O)Nc1ccc(C2SC(=Nc3cccc(F)c3)N(Cc3ccco3)C2=O)cc1,-,Huh7,-,1–5 µM
C=C[C@@H]1C[C@]1(NC(=O)[C@@H]1C[C@@H](Oc2cc(-c3ccccc3)nc3cc(OC)ccc23)CN1C(=O)[C@@H](NC(=O)COc1ccc(F)cc1)C(C)(C)C)C(=O)NS(=O)(=O)C1CC1,1b,Huh7,-,<0.5 µM
C=CC1C[C@@]1(NC(=O)[C@@H]1C[C@@H](Oc2cc(-c3nc(C(C)C)cs3)nc3cc(OC)ccc23)CN1C(=O)[C@@H](NC(=O)OC(C)(C)C)C(C)(C)C)C(=O)NS(=O)(=O)C1(CCC)CC1,1b,Huh7,-,<0.05 µM
COc1ccc(CC(=O)N/N=C/c2ccccc2OS(=O)(=O)c2ccc(C(F)(F)F)cc2)c(OC)c1OC,-,Huh7,-,<5 µM
CNC(=O)c1c(-c2ccc(F)cc2)oc2cc(C=O)c(OC(C)C)cc12,-,Huh7,-,<30 µM
CC1CCC(C(=O)N(c2cc(-c3ccc(NC(=O)c4ccsc4)cc3)sc2C(=O)O)C(C)C)CC1,1a,-,-,<0.5 µM
Fc1ccc(-c2ccc3nc(NCCn4cncn4)nc(NCC(F)(F)F)c3n2)cc1,-,-,-,<0.1 µM
CNC(=O)c1c(-c2ccc(F)cc2)oc2cc(N(CS(C)(=O)=O)c3cscn3)c(OC(C)C)cc12,-,Huh7,-,<1 µM
CC(C)(O)CNc1nc(NCc2ccc(F)cc2)nc2ccc(-c3ccc(F)cc3)nc12,-,-,-,<0.1 µM
C=CC1C[C@@]1(NC(=O)[C@@H]1C[C@@H](Oc2cc(-c3ccccc3)nc3cc(OC)ccc23)CN1C(=O)[C@@H](NC(=O)[C@@H](OC)c1ccccc1)C(C)(C)C)C(=O)NS(=O)(=O)C1(CC2CC2)CC1,1b,Huh7,-,0.05–0.5 µM
NS(=O)(=O)c1ccc(CNc2nc(NCC(F)(F)F)c3nc(-c4ccc(N5CCC(O)C5=O)cc4)ccc3n2)cc1,-,-,-,<0.1 µM
CNC(=O)c1c(-c2ccc(F)cc2)oc2cc(N(C)S(C)(=O)=O)c(OCc3nccn3C)cc12,-,Huh7,-,<1 µM

Repeating the final 5 entries:

structure,strain or isolate,cells,setting,value
CNC(=O)c1c(-c2ccc(F)cc2)oc2cc(N(CS(C)(=O)=O)c3cscn3)c(OC(C)C)cc12,-,Huh7,-,<1 µM
CC(C)(O)CNc1nc(NCc2ccc(F)cc2)nc2ccc(-c3ccc(F)cc3)nc12,-,-,-,<0.1 µM
C=CC1C[C@@]1(NC(=O)[C@@H]1C[C@@H](Oc2cc(-c3ccccc3)nc3cc(OC)ccc23)CN1C(=O)[C@@H](NC(=O)[C@@H](OC)c1ccccc1)C(C)(C)C)C(=O)NS(=O)(=O)C1(CC2CC2)CC1,1b,Huh7,-,0.05–0.5 µM
NS(=O)(=O)c1ccc(CNc2nc(NCC(F)(F)F)c3nc(-c4ccc(N5CCC(O)C5=O)cc4)ccc3n2)cc1,-,-,-,<0.1 µM
CNC(=O)c1c(-c2ccc(F)cc2)oc2cc(N(C)S(C)(=O)=O)c(OCc3nccn3C)cc12,-,Huh7,-,<1 µM

An empty or dashed field is not shown. a–b is a range or a potency band. Conditions beyond the fields shown may differ between rows.